The nature of this data set: Animal tolerability: general appearance and blood chemistry (AST, ALT, creatinine). Format: in vivo, male Wistar rats. Conditions: for General appearance / ALT / AST / Creatinine: post-dosing (24 h); for ALT / AST / Creatinine: plasma. The procedure: Liver and kidney function were assessed prior to the pharmacokinetic experiment. Biochemical markers for aspartate aminotransferase (AST), alanine aminotransferase (ALT), and creatinine were used to determine these functions. Plasma was collected before and 24 h after cucurbitacin B administration. Measurement of these markers was conducted by Professional Laboratory Management Corporation (Bangkok, Thailand). AST and ALT were quantified by kinetic method according to IFCC recommendations, whereas creatinine level in plasma was measured by using Cobas 6000 automated analyzer in enzymatic method (chemiluminescence).
Biochemical markers including AST, ALT, and creatinine were presented as mean ± standard deviation (SD). Comparison of these markers between pre- and post-treatment groups was conducted by paired sample t-test in which statistical difference was decided at p-value < 0.05. Cucurbitacin B plasma levels obtained from LC-MS/MS analysis were further analyzed by constructing the curve between the calculated concentrations (μg/L) and blood sampling time points (h). Cucurbitacin B plasma concentrations in the plasma concentration-time curve were reported as mean ± SD. Pharmacokinetic parameters were computed by PK solutions 2.0 software (Montrose, United States) with non-compartmental analysis. The pharmacokinetic parameters were listed as follows: maximum plasma concentration (Cmax), time to maximum plasma concentration (Tmax), area under the curve from time zero to last sampling time point (AUC0-t), area under the curve from time zero to infinity (AUC0-inf), absolute oral bioavailability (F), elimination half-life (t1/2), volume of distribution (Vd), clearance (CL), and mean residence time (MRT). Absolute oral bioavailability was calculated according to the following equation: %F=AUC0−infafter oral administration/AUC0−infafterIVadministration×IVdose/oral dose×100

Take Cucurbitacin B: where the note is “0.1 mg/kg IV”, the General appearance result was “Normal”, the ALT is 11.00 ± 3.94 U/L, the AST was 49.20 ± 3.27 U/L and the Creatinine is recorded as 0.23 ± 0.02 mg/dL. Under “2 mg/kg PO”, the General appearance result is “Normal”, the ALT came out at 6.33 ± 1.53 U/L, the AST was 32.33 ± 11.68 U/L and the Creatinine was 0.19 ± 0.03 mg/dL. For the same substance, where the note is “4 mg/kg PO”, the General appearance result is reported as “Normal”, the ALT was found to be 12.25 ± 5.62 U/L, the AST is 50.25 ± 0.96 U/L and the Creatinine is listed as 0.22 ± 0.03 mg/dL. The tolerability entry (all animals, 24 h after administration) is reported as “good tolerability”. For the same substance, for the setting “high dose administered group”, the observed adverse sign entry is recorded as “soft stool in some animals”.

These data come from paper PMC6609384, “Pharmacokinetics of cucurbitacin B from Trichosanthes cucumerina L. in rats” (BMC Complementary and Alternative Medicine, 2019).
